Anti-infective test results gathered from many reports (values: NIAID ChemDB through PubChem).

Shared fields: tests in culture; species: HIV-1

Two numbers with a dash give a range or band. Blank or dashed fields: not listed here. ECn: concentration that inhibits the pathogen or its effect by n%. Neighbouring rows are from separate reports.

structure,setting,cells,strain or isolate,changes,read by,read-out,result
Cc1cn([C@H]2C[C@H](N=[N+]=[N-])[C@@H](CO)O2)c(=O)[nH]c1=O,-,MT-2,IIIB (BI-RG-587-RS),-,cytopathic effect / MTT,EC50,0.13 µM
O[C@]12C=C(Cc3cc4cc(F)ccc4[nH]3)[C@@H]3CCN(CCCC/C=C\CC1)C[C@@]31C[C@@H]3CCCCCCN3C12,-,PBMC,LAV,-,RT activity,EC50,1.1 µM
Nc1nc(=O)n([C@@H]2CS[C@H](CO)O2)cc1F,-,TZM-bl,LAI,E138R,-,EC50,1.3 µM
CC(C)=CCN1Cc2cc(Cl)cc3[nH]c(=S)n(c23)C[C@@H]1C,-,CEM,TSAO(RT-E138K),RT-E138K,syncytia,EC50,0.94 µM
Cc1cn([C@H]2C=C[C@@H](CO)O2)c(=O)[nH]c1=O,-,ATH8,IIIB,-,-,EC50,4.1 µM
CC(C)(C)NC(=O)[C@@H]1CCCN1C(=O)[C@@H](O)[C@H](Cc1ccccc1)NC(=O)[C@H](CC(N)=O)NC(=O)c1cnc2ccccc2n1,-,CEM,IIIB,-,antigen,EC50,0.3 µM
Cc1cn([C@H]2C[C@H](F)[C@@H](CO)O2)c(=O)[nH]c1=O,-,PBMC,LAV,-,RT activity,EC50,0.002 µM
O=c1[nH]cnc2c1ncn2[C@H]1CC[C@@H](CO)O1,-,ATH8,IIIB,-,cytopathic effect,EC50,8 µM
C[C@H]1C[C@@H]2[C@@H](OC[C@@H]2OC(=O)N[C@@H](Cc2ccccc2)[C@H](O)CN2C[C@H]3CCCC[C@H]3C[C@H]2C(=O)NC(C)(C)C)O1,-,MT-4,IIIB,-,p24,EC50,<0.2 µM
CC(C)(C)OC(=O)[C@@H]1CCCN1C(=O)[C@@H](O)[C@H](Cc1ccccc1)NC(=O)[C@H](CC(N)=O)NC(=O)c1cnc2ccccc2n1,-,CEM,IIIB,-,antigen,EC50,0.4 µM
CC(C)(C)NC(=O)[C@@H]1CC2CCCCC2CN1C[C@@H](OC(=O)CC(=O)O[C@H]1[C@@H](C2COC(C)(C)O2)OC2OC(C)(C)O[C@H]21)[C@H](Cc1ccccc1)NC(=O)[C@H](CC(N)=O)NC(=O)c1ccc2ccccc2n1,-,CEM + CEM-SS,LAI,-,cytopathic effect / MTT,EC50,0.019 µM
Cc1cn([C@H]2CC[C@@H](CO)O2)c(=O)[nH]c1=O,-,PBMC,LAV,-,RT activity,EC50,0.17 µM
CC(C)(C)NC(=O)[C@@H]1C[C@@H]2CCCC[C@@H]2CN1C[C@@H](O)[C@H](Cc1ccccc1)NC(=O)O[C@H]1CO[C@H]2OCC[C@H]21,-,MT-4,IIIB,-,p24,EC95,0.046 µM
Cc1cn([C@@H]2C[C@@H](F)[C@H](CO)O2)c(=O)[nH]c1=O,-,PBMC,LAV,-,RT activity,EC50,>100 µM
CC(C)(C)NC(=O)[C@@H]1CN(Cc2cccnc2)CCN1C[C@@H](O)C[C@@H](Cc1ccccc1)C(=O)N[C@H]1c2ccccc2C[C@H]1O,-,CEM + CEM-SS,LAI,-,cytopathic effect / MTT,EC50,~0.01 µM
Cc1cc(O)c(C)c(C(=O)N[C@@H](Cc2ccc3ccccc3c2)[C@H](O)C(=O)N2C[C@@H](Cl)C[C@H]2C(=O)NC(C)(C)C)c1,-,CEM,IIIB,-,p24,EC90,0.027 µM
NC(=O)c1ncn([C@@H]2O[C@H](CO)[C@@H](O)[C@H]2O)c1N,-,MT-2,IIIB,-,cytopathic effect / XTT,EC50,500 µM
CC(C)(C)NC(=O)[C@@H]1C[C@@H]2CCCC[C@@H]2CN1C[C@@H](O)[C@H](Cc1ccccc1)NC(=O)O[C@@H]1CO[C@@H]2OCCC[C@@H]21,-,MT-4,IIIB,-,p24,EC50,<0.05 µM
Cc1cn([C@H]2C[C@H](N=[N+]=[N-])[C@@H](CO)O2)c(=O)[nH]c1=O,-,MT-2,-,RT-Q151M V75I,cytopathic effect / MTT,EC50,>10 µM
Cc1cn([C@H]2C[C@H](N=[N+]=[N-])[C@@H](CO)O2)c(=O)[nH]c1=O,-,PBL (resting) + PBL,BZ X4,-,RT activity,EC50,>4 µM
CC(C)(C)NC(=O)[C@@H]1CC2CCCCC2CN1C[C@@H](OC(=O)CCC(=O)O[C@H]1[C@@H](C2COC(C)(C)O2)OC2OC(C)(C)O[C@H]21)[C@H](Cc1ccccc1)NC(=O)[C@H](CC(N)=O)NC(=O)c1ccc2ccccc2n1,-,CEM + CEM-SS,LAI,-,cytopathic effect / MTT,EC50,0.018 µM
COc1c2c(cc3c1-c1c(cc4c(c1OC)OCO4)C(OC(=O)c1ccccc1)[C@H](C)[C@@H](C)C3)OCO2,-,H9,IIIB,-,p24,EC50,3.1 µg/mL
Cc1cn([C@H]2C=C[C@@H](CO)O2)c(=O)[nH]c1=O,-,CEM,HE,-,-,EC50,0.43 µM
Cc1c(O)cccc1C(=O)N[C@@H](CSc1ccccc1)[C@@H](CN1C[C@H]2CCCC[C@H]2C[C@H]1C(=O)NC(C)(C)C)OC(=O)CCCCNC(=O)O[C@H]1[C@@H](C2COC(C)(C)O2)OC2OC(C)(C)O[C@H]21.O=C(O)C(F)(F)F.O=C(O)C(F)(F)F,-,MT-4,IIIB,-,cytopathic effect / MTT,EC50,>10 µM
COc1cc(/C=C/c2ccc3ccc(C(=O)O)c(O)c3n2)cc(O)c1O,-,HeLaP4,-,-,β-galactosidase,EC50,0.3 µM
Cc1cn([C@H]2C[C@H](N=[N+]=[N-])[C@@H](CO)O2)c(=O)[nH]c1=O,-,MT-4,IIIB,-,cytopathic effect / trypan blue,EC50,0.016 µM
S=C(NCCc1cccs1)Nc1ccc(Br)cn1,-,PBMC,IIIB,-,p24,EC50,0.03 µM
Cc1ccnc2c1NC(=O)c1cccnc1N2C1CC1,-,MT-2,IIIB,-,cytopathic effect / MTT,EC50,0.12 µM
O[C@]12C=C(Cc3nccc4ccccc34)[C@@H]3CCN(CCCC/C=C\CC1)C[C@@]31C[C@@H]3CCCCCCN3C12,-,PBMC,LAV,-,RT activity,EC90,60.4 µM
Cc1c(O)cccc1C(=O)N[C@@H](CCc1ccccc1)[C@H](O)C(=O)N1C[C@@H](Cl)C[C@H]1C(=O)NC(C)(C)C,-,CEM,IIIB,-,p24,EC50,<0.73 µM
Cc1cn([C@H]2C=C[C@@H](CO)O2)c(=O)[nH]c1=O,-,MT-2,LAI WT,-,cytopathic effect / MTT,EC50,5.6 µM
COC(=O)[C@H]1CC[C@H]2[C@@H]3CC=C4CC(O)CC[C@]4(C)[C@H]3CC[C@]12C,-,H9,IIIB,-,p24,EC50,18 µM
Cc1ccnc2c1NC(=O)c1cccnc1N2C1CC1,-,MT-4,RT-190A,RT-G190A,cytopathic effect / MTT,EC50,7.94 µM
CC(C)(C)NC(=O)[C@@H]1CCCN1C(=O)[C@@H](O)[C@H](Cc1ccccc1)NC(=O)[C@H](CC(N)=O)NC(=O)c1ccc2ccccc2n1,-,CEM,IIIB,-,antigen,EC50,0.2 µM
Cc1cn([C@H]2C[C@H](N=[N+]=[N-])[C@@H](CO)O2)c(=O)[nH]c1=O,-,CEM + CEM TK-,IIIB,-,RT activity,EC50,0.1–0.2 µM
Cc1cn([C@@H]2CC[C@H](CO)O2)c(=O)[nH]c1=O,-,PBMC,LAV,-,RT activity,EC50,>10 µM
CC(C)(O)c1ccc(CN2C(=O)N(Cc3ccc(C(C)(C)O)cc3)[C@H](Cc3ccccc3)[C@H](O)[C@@H](O)[C@H]2Cc2ccccc2)cc1,-,MT-2/MT-4 + MT-2,RF,-,-,EC90,8.04 µM
CC(C)[C@H](NC(=O)OCc1ccccc1)C(=O)N[C@@H](Cc1ccccc1)C(=O)C(F)(F)CCc1ccccn1,-,MT-4,IIIB,-,-,EC50,5.7 µM
Cc1c(O)cccc1C(=O)N[C@@H](CSc1ccccc1)[C@H](O)CN1C[C@H]2CCCC[C@H]2C[C@H]1C(=O)NC(C)(C)C,-,CEM + CEM-SS,LAI,-,cytopathic effect / MTT,EC50,0.002 µM
COc1c2c(cc3c1-c1c(cc4c(c1OC)OCO4)C(OC(=O)c1ccccc1)[C@@](C)(O)[C@@H](C)C3)OCO2,-,H9,IIIB,-,p24,EC50,0.5 µg/mL
CC(C)(O)c1cccc(CN2C(=O)N(Cc3cccc(C(C)(C)O)c3)[C@H](Cc3ccccc3)[C@H](O)[C@@H](O)[C@H]2Cc2ccccc2)c1,-,MT-2/MT-4 + MT-2,HXB2,PR-V82F,p24,EC50,<0.0843 µM
CCc1c(C(=O)c2cc(C)cc(C)c2)n(CC2CC=CC2)c(=O)[nH]c1=O,-,CEM + CEM-SS,SK1,-,cytopathic effect / XTT,EC50,0.002 µM
Nc1nc2c(ncn2C2CC=C[C@H]2CO)c(=O)[nH]1,-,CEM,HE,-,-,EC50,>100 µM
Cc1cnc(CC2=C[C@@]3(O)CC/C=C\CCCCN4CC[C@@H]2[C@]2(C[C@@H]5CCCCCCN5C23)C4)cn1,-,PBMC,LAV,-,RT activity,EC50,13.2 µM
O=c1[nH]cnc2c1ncn2[C@H]1CC[C@@H](CO)O1,-,PBL (activated) + PBL,SF162 R5,-,RT activity,EC50,9 µM
O[C@]12C=C(Cc3cccc4cnccc34)[C@@H]3CCN(CCCC/C=C\CC1)C[C@@]31C[C@@H]3CCCCCCN3C12,-,PBMC,LAV,-,RT activity,EC90,57.9 µM
O=C(NCc1c(F)cc(F)cc1F)c1cn2c(c(O)c1=O)C(=O)N1C3CCC(CC3)O[C@@H]1C2,-,MT-4,IIIB,-,ATP,EC50,0.0025 µM
Cc1cc(O)c(C)c(C(=O)N[C@@H](Cc2ccccc2)[C@H](O)C(=O)N2C[C@@H](Cl)C[C@H]2C(=O)NC(C)(C)C)c1,-,CEM,IIIB,-,p24,EC50,<0.115 µM
Cc1cn([C@H]2C[C@H](F)[C@@H](CO)O2)c(=O)[nH]c1=O,-,MT-4,SCV 4005,-,RT activity,EC50,0.012 µM
CC(C)=CCN1Cc2cccc3[nH]c(=S)n(c23)C[C@@H]1C,-,MT-2,IIIB (BI-RG-587-RS),-,cytopathic effect / MTT,EC50,6.3 µM
CC(C)(C)NC(=O)[C@@H]1C[C@@H]2CCCC[C@@H]2CN1C[C@@H](OC(=O)CCCCO[C@@H]1[C@@H](O)[C@@H](O)O[C@H](CO)[C@H]1O)[C@H](Cc1ccccc1)NC(=O)[C@H](CC(N)=O)NC(=O)c1ccc2ccccc2n1,-,CEM + CEM-SS,LAI,-,cytopathic effect / MTT,EC50,<0.011 µM
Cc1cn([C@H]2C[C@H](N=[N+]=[N-])[C@@H](CO)O2)c(=O)[nH]c1=O,-,CEM,HE,-,-,EC50,0.0086 µM
CC(C)Nc1cccnc1N1CCN(C(=O)c2cc3ccccc3[nH]2)CC1,-,CEM,TIBO-1(RT-L100I),RT-L100I,syncytia,EC50,1.6 µM
C[C@H](Cn1cnc2c(N)ncnc21)OCP(=O)(O)O,-,MT-2,G910-6 AZT-resistant (RT D67N K70R T215F K219Q),RT-D67N K70R T215F K219Q,p24,EC50,0.6 µM
Cc1cn([C@@H]2O[C@H](CO[Si](C)(C)C(C)(C)C)C3(OS(=O)(=O)C=C3N)[C@H]2O[Si](C)(C)C(C)(C)C)c(=O)n(C)c1=O,-,CEM,TIBO-1(RT-L100I),RT-L100I,syncytia,EC50,0.07 µM
C[C@]12CC[C@H]3[C@@H](CC=C4NC(=O)CC[C@@]43C)[C@@H]1CC[C@@H]2C(=O)Nc1ccc([N+](=O)[O-])c(C(F)(F)F)c1,-,H9,IIIB,-,p24,EC50,3.09 µM
Nc1ccn([C@H]2CC[C@@H](CO)O2)c(=O)n1,-,ATH8,IIIB,-,cytopathic effect,EC50,0.3 µM
CC(C)(C)NC(=O)[C@@H]1C[C@@H]2CCCC[C@@H]2CN1C[C@@H](O)[C@H](Cc1ccccc1)NC(=O)O[C@@H]1CO[C@@H]2OCC[C@@H]21,-,MT-4,IIIB,-,p24,EC50,<0.2 µM
Cc1cn([C@@H]2C[C@@H](N)[C@H](CO)O2)c(=O)[nH]c1=O,-,PBMC,LAV,-,RT activity,EC50,>100 µM
CC(C)[C@H](NC(=O)OCc1ccccn1)C(=O)N[C@@H](Cc1ccccc1)C(=O)C(F)(F)CCc1ccccc1,-,MT-4,IIIB,-,-,EC50,6.3 µM
S=C(NCc1ccco1)Nc1nccs1,-,PBMC,IIIB,-,p24,EC50,<0.001 µM
Cc1cc(C#N)cc(C)c1Oc1nc(Nc2ccc(C#N)cc2)nc(N)c1Br,-,TZM-bl,LAI,E138G,-,EC50,0.0032 µM
O=c1[nH]cnc2c1ncn2[C@H]1CC[C@@H](CO)O1,-,MT-2,IIIB (BI-RG-587-RS),-,cytopathic effect / MTT,EC50,20.8 µM
[O-][n+]1ccc(CC2=C[C@@]3(O)CC/C=C\CCCCN4CC[C@@H]2[C@]2(C[C@@H]5CCCCCCN5C23)C4)cc1,-,PBMC,LAV,-,RT activity,EC90,35.6 µM
O=c1[nH]cnc2c1ncn2[C@H]1CC[C@@H](CO)O1,5 d,MT-2,IIIB,-,cytopathic effect / XTT / RT activity,EC50,6.5 µM
CC(C)(C)NC(=O)[C@H]1CC[C@H]2[C@@H]3CCC4=CC(=O)CC[C@]4(C)[C@H]3CC[C@]12C,-,H9,IIIB,-,p24,EC50,0.8 µM
Nc1nc2c(ncn2[C@H]2C=C[C@@H](CO)C2)c(=O)[nH]1,5 d,MT-2,MB48 ddI-resistant,-,cytopathic effect / XTT / RT activity,EC50,4.1 µM
CCc1cc(NCc2nc3c(Cl)ccc(Cl)c3o2)c(=O)[nH]c1C,-,CEM,MN-QUIN(RT-G190E),RT-G190E,syncytia,EC50,>3 µM

For reference, 5 entries again:

| structure | setting | cells | strain or isolate | changes | read by | read-out | result |
|---|---|---|---|---|---|---|---|
| O[C@]12C=C(Cc3cccc4cnccc34)[C@@H]3CCN(CCCC/C=C\CC1)C[C@@]31C[C@@H]3CCCCCCN3C12 | - | PBMC | LAV | - | RT activity | EC90 | 57.9 µM |
| Cc1c(O)cccc1C(=O)N[C@@H](CSc1ccccc1)[C@H](O)CN1C[C@H]2CCCC[C@H]2C[C@H]1C(=O)NC(C)(C)C | - | CEM + CEM-SS | LAI | - | cytopathic effect / MTT | EC50 | 0.002 µM |
| CC(C)(O)c1cccc(CN2C(=O)N(Cc3cccc(C(C)(C)O)c3)[C@H](Cc3ccccc3)[C@H](O)[C@@H](O)[C@H]2Cc2ccccc2)c1 | - | MT-2/MT-4 + MT-2 | HXB2 | PR-V82F | p24 | EC50 | <0.0843 µM |
| COc1cc(/C=C/c2ccc3ccc(C(=O)O)c(O)c3n2)cc(O)c1O | - | HeLaP4 | - | - | β-galactosidase | EC50 | 0.3 µM |
| Cc1cn([C@H]2C=C[C@@H](CO)O2)c(=O)[nH]c1=O | - | CEM | HE | - | - | EC50 | 0.43 µM |